Results: PubChem BioAssay AID1159524 (National Center for Advancing Translational Sciences (NCATS), 2015)
Only a part is listed here, and it is no random draw. Inconclusive results are not listed. Activity calls are given as the source filed them. Calls follow the shape of the full dose curve; tested in HEK293T cells.

test: High Throughput Screening for Foot and Mouth Disease Virus Antivirals; details: FMDV antiviral cell-based qHTS; series mostly up to 57.9 µM; activity change, negative = inhibition: at the top concentration; also: read-out not given here; nearly all actives have a fitted effect of over 45% in size
% is scaled to controls: 0 for no effect and ±100 for the full control effect; potency is read from the fitted curve at half-maximal effect.

Compound	activity change, negative = inhibition	Potency
CCN(N=Nc1nonc1N)c1nonc1N	inactive: -9.36%	–
Nc1cccc2ccc([As](=O)(O)O)cc12	inactive: -9.12%	–
CN(C(=O)Cc1ccc(Cl)c(Cl)c1)[C@H]1CCCC[C@@H]1N1CCCC1	–	inactive
Cc1ccc(NP(=O)(Oc2ccccc2F)Oc2ccccc2F)nc1	inactive: 7.99%	–
Cc1cc(SC(NC(=O)c2ccc(F)cc2)C(Cl)(Cl)Cl)ncn1 (stereo not drawn)	inactive: 0%	–
CCOP(=O)(Nc1ccccc1)OCC	inactive: -16.9%	–
CCCC1OP(N)(=O)OCC1CC (stereo not drawn)	inactive: 30.4%	–
CC(=O)Nc1ccc([As](=O)(O)O)cc1	inactive: -4.05%	–
O=C(O)c1ccccc1[As](=O)(O)O	inactive: -7.17%	–
O=P(Nc1nc2ccc(Cl)cc2s1)(c1ccccc1)c1ccccc1	inactive: 31.4%	–
CN(C)P(=O)(N(C)C)n1c(Nc2ccccc2)nnc1-c1ccccc1	inactive: 29%	–
O=[N+]([O-])C1C(O)C(O)C([N+](=O)[O-])C(O)C1O (stereo not drawn)	inactive: -20.8%	–
Nc1cc(N)c2nonc2c1[N+](=O)[O-]	inactive: -3.26%	–
O=[N+]([O-])c1cc([N+](=O)[O-])c(Nc2ccccn2)c([N+](=O)[O-])c1	–	active: 25.1 µM
O=C(NC(Sc1ccncn1)C(Cl)(Cl)Cl)c1ccccc1 (stereo not drawn)	inactive: 4.08%	–
Cc1ccc(OP(=O)(Nc2nccs2)Oc2ccc(C)cc2)cc1	inactive: 34.4%	–
COc1ccccc1OP(=O)(Nc1ccc(C)cn1)Oc1ccccc1OC	inactive: -16.5%	–

Compound	activity change, negative = inhibition	Potency
CN1CCCC(OC(=O)C(c2ccccc2)c2ccccc2)C1 (stereo not drawn)	inactive: -15.4%	–
Clc1ccc(Cl)c(NC2=NCC(CBr)S2)c1 (stereo not drawn)	inactive: -8.04%	–
NC(=O)c1cc([N+](=O)[O-])cc([N+](=O)[O-])c1N	inactive: -11.8%	–
Cc1ccc(N/C(=N/P(=O)(N2CCOCC2)N2CCOCC2)N2CCOCC2)cc1	inactive: 5.06%	–
CN(C(=O)Cc1ccc(Cl)c(Cl)c1)[C@H]1CCCC[C@H]1N1CCCC1	inactive: -10.3%	–
CN(C)C(=O)OCCc1n(C)cc[n+]1C	inactive: -4.08%	–
CC(C)c1nc(Nc2ccccc2)n(P(=O)(N(C)C)N(C)C)n1	inactive: -18.3%	–
CC(C)=N/N=C(\N)N[N+](=O)[O-]	inactive: -9.32%	–
CC(=O)C1=CCCC2CCC1N2 (stereo not drawn)	inactive: -12.9%	–
CC1CCN(C(=O)Oc2c(Cl)cc(Cl)c3cccnc23)CC1	inactive: 13.1%	–
c1cc(-c2nn[nH]n2)ccc1-c1nn[nH]n1	inactive: -15.5%	–
Nc1ccc([As](=O)(O)c2ccc(N)cc2)cc1	inactive: -0.643%	–
CCN(/C(=N/P(=O)(N1CCOCC1)N1CCOCC1)N1CCOCC1)c1ccc(OC)cc1	inactive: -2.98%	–
O=C(OCCCN1CCCC1)C(O)(c1ccccc1)C1CCCCC1 (stereo not drawn)	inactive: -26.6%	–
CC(=O)N1C2C3N(C(C)=O)C1C1N(C(C)=O)C(C(N1C(C)=O)N3C(C)=O)N2C(C)=O	inactive: 9.31%	–
O=[N+]([O-])c1cccc2n[nH]nc12	inactive: 19.6%	–
